From patent US20090221500A1 (ANGELICA THERAPEUTICS, published 2009)

Target: elongation factor-2 (EF-2) (rabbit (reticulocyte lysate))
Experiment: cell-based or functional assay

B1: wild type DT382 (enzyme)
chain: not shown
- IC50 (ng/12.5 µl), inhibition of protein synthesis in IVTT: 20.3 ng/12.5 µl
